A mixed list of measured activities; the numbers were collected in NIAID ChemDB.

Common to all: whole-cell or culture tests; species: Herpes simplex virus 2; endpoint: EC50

Conditions beyond the fields shown may differ between rows. Blank or dashed fields: not listed here. ECn: concentration that inhibits the pathogen or its effect by n%.

structure,cell line,strain,value
Cc1cn([C@H]2C[C@H](N=[N+]=[N-])[C@@H]([C@@H](C)O)O2)c(=O)[nH]c1=O,,,300 µg/mL
CC(=O)OCCOCN1C(=O)C=CN(COCCO)S1(=O)=O,E6SM,LYONS,>400 µg/mL
O=C(c1ccncc1)n1c(-c2cccc([N+](=O)[O-])c2)nc2ccccc21,,G,>100 µg/mL
CC(=O)OCCOCN1C(N)=CC(N)=NS1(=O)=O,E6SM,LYONS,>400 µg/mL
O=C(c1ccc([N+](=O)[O-])cc1)n1c(-c2ccc([N+](=O)[O-])cc2)nc2ccccc21,,G,50 µg/mL
Nc1nc2c(ncn2C[C@H]2C[C@H]2[C@H](O)CO)c(=O)[nH]1,VERO,,>50 µM
CC(=O)OCCOCN1C(=N)/C(=C(\C)O)C(N)=NS1(=O)=O,E6SM,G,>400 µg/mL
OCCCCn1cc(Cn2ncc3c(NCc4ccccc4)ncnc32)nn1,E6SM,G,>400 µg/mL
Cc1cn([C@H]2CC3(CO2)COC(C)(C)O3)c(=O)[nH]c1=O,CCL18,,>100 µM
O=C(c1ccncc1)n1c(-c2ccccc2[N+](=O)[O-])nc2ccccc21,,G,>20 µg/mL
C=C1[C@H](CO)[C@H]1Cn1cnc2c(=O)[nH]c(N)nc21,,,>100 µM
Cc1cn([C@@H]2O[C@H](COP(=O)(O)O)[C@@H](O)[C@H]2O)c(=O)nc1N,,196,>400 µg/mL
NC1=CC(N)=NS(=O)(=O)N1COCCO,E6SM,LYONS,>400 µg/mL
O=C1O[C@H](CO)C[C@]1(O)CO,CCL18,,>100 µM
Cc1cccn2c(C3SCCS3)cnc12,E6SM,G,>1000 µM
CC(=O)OCCOCN1C=C(C#N)C(N)=NS1(=O)=O,E6SM,G,>400 µg/mL
CCCCCCc1cn([C@@H]2OC3COP(=O)(O)OC3[C@H]2O)c(=O)nc1N,,LYONS,>400 µg/mL
C=C1[C@H](CO)[C@H]1Cn1cnc2c(N)nc(N)nc21,,,>100 µM
CSc1ncnc2c1cnn2Cc1cn(CCCCO)nn1,E6SM,G,>400 µg/mL
O=C(c1ccccc1Br)n1c(-c2ccc([N+](=O)[O-])cc2)nc2ccccc21,,G,>100 µg/mL
CCCCCCCCc1cn([C@@H]2O[C@H](COP(=O)(O)O)[C@@H](O)[C@H]2O)c(=O)nc1N,,LYONS,>400 µg/mL
CC1(C)OCC2(CO[C@H](n3ccc(NC(=O)c4ccccc4)nc3=O)C2)O1,CCL18,,>100 µM
Nc1ncnc2c1ncn2[C@H]1C[C@]12C[C@H]2CO,VERO,,>50 µM
OCCCCn1nncc1Cn1ncc2c(SCc3ccccc3)ncnc21,E6SM,G,>400 µg/mL
O=c1[nH]cnc2c1ncn2C[C@H]1C[C@H]1[C@H](O)CO,VERO,,>50 µM
CC(C)Nc1ncnc2c1ncn2C1C[C@H](CO)[C@@H](CO)C1,E6SM,G,>100 µg/mL
O=c1[nH]c(=O)n([C@H]2C[C@H](O)[C@@H](O)O2)cc1C#Cc1ccc2c3cccc4cccc(c5cccc1c52)c43,VERO,186,0.052 µM
CC1=CC(=O)N(c2ccccc2)S(=O)(=O)N1COCCO,E6SM,LYONS,>400 µg/mL
Nc1ccn([C@@H]2OCC(CO)=C2F)c(=O)n1,,,>100 µg/mL
Nc1nc2c(ncn2C[C@H]2C[C@H]2CO)c(=O)[nH]1,VERO,,>50 µM
Cc1ccn2c(C3OCCS3)cnc2c1,E6SM,G,>1000 µM
CC12CC3C4(CC[C@H]5C(C)(C)CCC[C@]5(C)[C@]34C1)CC2=O,VERO,,20 µg/mL
Cc1cccn2c(C3OCCO3)cnc12,E6SM,G,>1000 µM
O=c1[nH]c(=O)n([C@H]2O[C@@H](CO)[C@H](O)[C@@H]2O)cc1I,,,>100 µM
CN[C@H]1C[C@@H](n2cnc3c(N)ncnc32)[C@H](O)[C@@H]1O,HFF,,>100 µg/mL
C=C1[C@H](CO)[C@H]1Cn1cnc2c(Cl)ncnc21,,,>100 µM
CC1(C)OCC2(CO[C@@H](n3ccc(=O)[nH]c3=O)C2)O1,CCL18,,>100 µM
O=C(c1ccncc1)n1c(-c2ccc(Cl)cc2)nc2ccccc21,,G,>20 µg/mL
Cc1cn(C[C@H]2C[C@H]2[C@H](O)CO)c(=O)[nH]c1=O,VERO,,>50 µM
CC(=O)O[C@H]1C[C@H]2C(C)(C)CCC[C@]2(C)[C@@]23CCC(C)(C2)[C@H](OC(C)=O)C[C@H]13,VERO,,10 µg/mL
COC(=O)[C@H](C)NP(=O)(OC[C@H]1C/C1=C/n1cnc2c(N)nc(N)nc21)Oc1ccccc1,,,15 µM
O=C1O[C@H]2[C@@H]3OC(=O)c4cc(c(O)c(O)c4O)-c4c(cc(Oc5c(C(=O)O[C@H]6[C@H](OC(=O)c7cc(O)c(O)c(O)c7)OC7COC(=O)c8cc(O)c(O)c(O)c8-c8c(cc(O)c(O)c8O)C(=O)O[C@H]6C7OC(=O)c6cc(O)c(O)c(O)c6)cc(O)c(O)c5O)c(O)c4O)C(=O)OC[C@H]2O[C@@H](OC(=O)c2cc(O)c(O)c(O)c2)[C@@H]3OC(=O)c2cc(O)c(O)c3c2[C@@H]2C1=CC(=O)[C@@](O)(O3)C2(O)O,,,11.87 µM
Nc1ccn(C[C@@H](CO)OCP(=O)(O)O)c(=O)n1,MRC-5,,14.3 µM
CC(C)c1cn([C@@H]2OC3COP(=O)(O)OC3[C@H]2O)c(=O)nc1N,,LYONS,>400 µg/mL
COC(=O)[C@H](C)NP(=O)(OC[C@H]1C/C1=C/n1cnc2c(OC)nc(N)nc21)Oc1ccccc1,,,0.6 µM
CC(C)c1cn([C@@H]2O[C@H](COP(=O)(O)O)[C@@H](O)[C@H]2O)c(=O)nc1N,,LYONS,>400 µg/mL
O=c1ccn([C@@H]2C[C@H](CO)C[C@H]2CO)c(=O)[nH]1,E6SM,G,>100 µg/mL
O=C(O)c1ccccc1-c1nc2ccccc2n1C(=O)c1ccncc1,,G,>100 µg/mL
Nc1nc(NC2CC2)c2ncn(C=C3CC3CO)c2n1,,,41 µM
CC1(C)CCC[C@@]2(C)[C@H]1CC[C@H]1C[C@@H](O)C3(C)CC[C@]12C3,VERO,,7.5 µg/mL
Cc1cn([C@H]2C[C@](O)(CO)CO2)c(=O)[nH]c1=O,CCL18,,>100 µM
O=C(c1ccc([N+](=O)[O-])cc1)n1c(-c2ccc(O)cc2)nc2ccccc21,,G,>100 µg/mL
Nc1ccn([C@H]2CC[C@H](CO)O2)c(=S)n1,,,>100 µM
CC1(C)OCC(CO)(CC(O)CO)O1,CCL18,,>100 µM
O=c1[nH]c(=O)n([C@@H]2C[C@H](CO)C[C@H]2CO)cc1I,E6SM,G,>100 µg/mL
Nc1nc(=S)n([C@@H]2O[C@H](CO)[C@@H](O)[C@@H]2O)cc1F,,G,0.92 µg/mL
O=c1ccn([C@H]2C[C@](O)(CO)CO2)c(=O)[nH]1,CCL18,,>100 µM

Repeating the first 7 entries:

| structure | cell line | strain | value |
|---|---|---|---|
| Cc1cn([C@H]2C[C@H](N=[N+]=[N-])[C@@H]([C@@H](C)O)O2)c(=O)[nH]c1=O |  |  | 300 µg/mL |
| CC(=O)OCCOCN1C(=O)C=CN(COCCO)S1(=O)=O | E6SM | LYONS | >400 µg/mL |
| O=C(c1ccncc1)n1c(-c2cccc([N+](=O)[O-])c2)nc2ccccc21 |  | G | >100 µg/mL |
| CC(=O)OCCOCN1C(N)=CC(N)=NS1(=O)=O | E6SM | LYONS | >400 µg/mL |
| O=C(c1ccc([N+](=O)[O-])cc1)n1c(-c2ccc([N+](=O)[O-])cc2)nc2ccccc21 |  | G | 50 µg/mL |
| Nc1nc2c(ncn2C[C@H]2C[C@H]2[C@H](O)CO)c(=O)[nH]1 | VERO |  | >50 µM |
| CC(=O)OCCOCN1C(=N)/C(=C(\C)O)C(N)=NS1(=O)=O | E6SM | G | >400 µg/mL |